Results on one molecule are retold here after PMC4525294 (Nature Communications, 2015).

The assay has as its target MERS-CoV England1 RBD (residues 367–606) for crystallography (MERS-CoV, England1 strain (AFY13307), UniProt K9N5Q8). Put plainly: crystal structure. Conditions: both partners purified.

B1: D12 Fab (Fab, V domains shown)
VH: EVKLVESGGGLVKPGGSLKLSCAASGFTFSSYAMSWVRQTPEKRLEWVATISSGGTYTYYPDSVKGRFTISRDNAENTLYLQMSSLRSEDTAMYYCVRDGNSMDYWGQGTSVTVSS
VL: DIQMTQTTSSLSASLGDRVTIICRASQDINNYLNWYQQKPDGTVKLLIYYTSRLHSGVPSRFSGSGSGSDYSLTISNLEQEDIATYFCQQANTLPPTFGAGTKLELR
notes: also called D12 antibody as an Fab; source: prepared from D12 with the Pierce Mouse IgG1 Fab kit, purified (Superdex S200)
For the molecule B1, the binding result is “binds”.
